# B1: [R10K]CVIE (peptide)
# peptide: CKGKGASCRKTSYDCCTGSCRSLRC
# modifications: not checked
# B2: [R10K]CVIF (peptide)
# peptide: CKGKGASCRKTSYDCCTGSCRSGRC
# modifications: not checked
# Columns and labels:
# [1] = biological target: recombinant N-type (Cav2.2) VGCC α1B-b/α2δ1/β2a expressed in Xenopus oocytes (rat; rabbit), Q02294; assay: cell-based or functional assay
# [2] = biological target: recombinant N-type (Cav2.2) VGCC α1B-b/α2δ1/β3 expressed in Xenopus oocytes (rat; rabbit), Q02294; assay: cell-based or functional assay
Binder,"IC50 of block of IBa, Xenopus oocytes [1]","IC50 of block of IBa, Xenopus oocytes [2]"
B1,3.6 nM,3.5 nM
B2,,7.6 nM

# — patent publication US20120329717A1, “Omega conotoxin peptides” (published 2012)
